Where “and” joins values, the source holds several entries; their conditions need not be identical. Identical values can stand only once. Inconclusive results are not listed.
System: Nude mice, LX-1 lung xenograft intrarenal, tumor weight T/C
Assay: NCI In Vivo Anticancer Drug Screen. Data for tumor model Human Lung LX-1 Xenograft (intrarenal inoculation) in NU/NU BALB/C (nude) mice
Conditions: endpoint: mean tumor weight change, schedule: Q04DX003 (ip), vehicle: saline, higher = larger tumour
Experimental: The antitumor activity of compounds was measured in mice bearing transplantable tumors. Survival or tumor size were measured and the results are expressed as the measurement made in the treated group (T) divided by the measurement made in the vehicle treated control group (C). The tumor model used in this assay is Human Lung LX-1 Xenograft (intrarenal inoculation) in NU/NU BALB/C (nude) mice

SMILES: O=P1(N(CCCl)CCCl)NC(SCCS(=O)(=O)O)CCO1 (centres undefined)
- T/C (dose: 37.5 mg/kg/injection): 60 % of control and 81 % of control
- T/C (dose: 75.0 mg/kg/injection): 59 % of control and 61 % of control
- T/C (dose: 150.0 mg/kg/injection): 33 % of control and 40 % of control
- T/C (dose: 300.0 mg/kg/injection): 14 % of control

From PubChem BioAssay AID266 (DTP/NCI, 2004)
